The text below walks through data of PubChem BioAssay AID540254 (Southern Research Specialized Biocontainment Screening …, 2011).

Only a part is listed here, and it is no random draw. Measured potencies and affinities stand elsewhere. Calls of active or inactive are those of the source. No rule for the calls is given here.

The nature of this test: antiviral activity against H1N1 influenza, dose response, cell-based, strain KY180 (AID 540254). The following applies: H1N1 KY180 influenza antiviral cell-based screen; at 40 µM (top of the series).
As for `CCC(C)N(CC(C)C)C(=S)SC(NC(C)=O)C(Cl)(Cl)Cl` (configuration not stated), the inhibition was inactive: -1.01%.

For the compound `COc1cc(C(=O)NCC2(N3CCOCC3)CCCCC2)cc(Cl)c1OC(C)C`, the inhibition is inactive: -3.8%.
